The values below are quoted from earlier work in patent publication US20240115678A1, “PERSONALIZED […] CANCER THERAPY” (priority 2022, published 2024).

In the data set the test system is M2 cells cultured with EGFR-positive tumor cells. Conditions: tumor cells loaded with low concentrations of cetuximab.

Take “cetuximab: anti-epidermal growth factor receptor (EGFR) monoclonal antibody”: the “IL-10 and VEGF production” value is recorded as “further augmentation”.
